The entries are a selection whose mix differs from that of the whole data set. Results filed as inconclusive are left out. Activity calls are given as the source filed them. Calls come from the whole dose curve.
Assay: Primary qHTS Assay for Foot and Mouth Disease Virus Antivirals against NCGC Sytravon and CBC Compound Libraries: Firefly Luciferase Signal; note: nearly all actives have a fitted effect of over 60% in size
Settings: FMDV antiviral cell assay; at 57.5 µM (top of the series) unless noted
In the case of `O=C(NCC1(N2CCCCC2)CCCCC1)c1c[nH]c2ccccc12`, the activity change, negative = inhibition is reported as inactive: -10.7%. For `Cc1ccc(C(C)CCN(CCCl)CCCl)cc1` (stereo not given), the activity change, negative = inhibition was inactive: -16.2%. In the case of `CCCOc1ccccc1C(=O)NCC1(N2CCOCC2)CCCCC1`, the activity change, negative = inhibition is reported as inactive: 2.51%. With `COc1ccccc1C(=O)NCC1(N2CCOCC2)CCCCC1` the activity change, negative = inhibition was inactive: -13.5%. For `CN(C)C1(CNC(=O)c2nn(C)c(=O)c3ccccc23)CCCCC1`, the activity change, negative = inhibition was inactive: 15.3%. For `O=C(NCC1(N2CCOCC2)CCCCC1)c1ccc(Cl)cc1`, the activity change, negative = inhibition was inactive: -28.4%. For `Fc1ccc(CN2CCC(Nc3ccccc3Cl)CC2)cc1`, the activity change, negative = inhibition was inactive: -34%. With `CC1CN(CCc2ccccc2)CCC1=O` (stereo not given) the activity change, negative = inhibition was inactive: -0.725%. In the case of `CCOC(=O)N1CCC(=O)CC1`, the activity change, negative = inhibition is reported as inactive: -15%. For `O=C(NCC1(N2CCOCC2)CCCCC1)c1c[nH]c2ccccc12`, the activity change, negative = inhibition was inactive: -5.84%. In the case of `O=C(NCC1(N2CCOCC2)CCCCC1)c1ccccc1Br`, the activity change, negative = inhibition is reported as inactive: -11.3%. With `CCCCOc1ccccc1C(=O)NCC1(N2CCOCC2)CCCCC1` the activity change, negative = inhibition was inactive: -19.9%. In the case of `COc1ccccc1C(=O)NCC1(N(C)C)CCCCC1`, the activity change, negative = inhibition is reported as inactive: -7.14%. With `CCc1cc(C(=O)NCC2(N3CCOCC3)CCCCC2)sc1C` the activity change, negative = inhibition was inactive: -20%. With `CCCOc1cccc(C(=O)NCC2(N(C)C)CCCCC2)c1` the activity change, negative = inhibition was inactive: 7.51%. For `CCCOc1cccc(C(=O)NCC2(N3CCOCC3)CCCCC2)c1`, the activity change, negative = inhibition was inactive: -22.8%. For `O=C(NCC1(N2CCOCC2)CCCCC1)c1cc2c(s1)CCCC2`, the activity change, negative = inhibition was inactive: -6.02%. With `CCOc1ccc(C(=O)NCC2(N3CCOCC3)CCCCC2)cc1` the activity change, negative = inhibition was inactive: 5.43%. For `Brc1ccc(NC2CCN(Cc3cccc(Br)c3)CC2)cc1`, the activity change, negative = inhibition was inactive: -0.149%. With `O=C(NCC1(N2CCOCC2)CCCCC1)c1ccccc1` the activity change, negative = inhibition was inactive: -7.4%. In the case of `O=C(NCC1(N2CCOCC2)CCCCC1)c1ccccc1[N+](=O)[O-]`, the activity change, negative = inhibition is reported as inactive: -13.6%. For `CC1C(=O)CCN(CCc2ccccc2)C1C` (stereo not given), the activity change, negative = inhibition was inactive: 2.03%. For `O=C(NCC1(N2CCOCC2)CCCCC1)c1ccc([N+](=O)[O-])cc1`, the activity change, negative = inhibition was inactive: -1.18%. With `Fc1ccc(CN2CCC(Nc3ccc(Br)cc3)CC2)cc1` the activity change, negative = inhibition was inactive: -8.21%. With `Cc1cc(NC2CCN(Cc3ccccc3)CC2)ccc1Br` the activity change, negative = inhibition was inactive: 7.13%. In the case of `Cn1nc(C(=O)NCC2(N3CCOCC3)CCCCC2)c2ccccc2c1=O`, the activity change, negative = inhibition is reported as inactive: 9.53%. In the case of `O=C(NCC1(N2CCCCC2)CCCCC1)c1n[nH]c(=O)c2ccccc12`, the activity change, negative = inhibition is reported as inactive: 8.54%. In the case of `CCC(=O)N(c1ccccc1)C1CCNCC1`, the activity change, negative = inhibition is reported as inactive: -7.67% [at 11.5 µM]. In the case of `O=C(NCC1(N2CCOCC2)CCCCC1)c1n[nH]c(=O)c2ccccc12`, the activity change, negative = inhibition is reported as inactive: 17.6%. In the case of `COc1cc(C(=O)NCC2(N3CCOCC3)CCCCC2)cc(OC)c1OC`, the activity change, negative = inhibition is reported as inactive: -2.21%. In the case of `CCCOc1ccc(C(=O)NCC2(N(C)C)CCCCC2)cc1`, the activity change, negative = inhibition is reported as inactive: -14.6%. With `Cc1ccc2oc(C(=O)NCC3(N4CCCCC4)CCCCC3)cc(=O)c2c1` the activity change, negative = inhibition was inactive: 48.1%. With `CCCOc1ccccc1C(=O)NCC1(N(C)C)CCCCC1` the activity change, negative = inhibition was inactive: 4.63%. In the case of `Clc1ccccc1CN1CCC(Nc2ccc(Br)cc2)CC1`, the activity change, negative = inhibition is reported as inactive: 17.9%. With `Cc1ccccc1C(=O)NCC1(N(C)C)CCCCC1` the activity change, negative = inhibition was inactive: -13.1%. For `CC1CN(CCc2ccccc2)C(C)CC1=O` (stereo not given), the activity change, negative = inhibition was inactive: 0.454%. In the case of `CC(C)(C)c1ccc(C(=O)NCC2(N3CCOCC3)CCCCC2)cc1`, the activity change, negative = inhibition is reported as inactive: -14.8%. With `Cn1cc(C(=O)NCC2(N3CCOCC3)CCCCC2)c2ccccc21` the activity change, negative = inhibition was inactive: -17.6%. For `CN(C)C1(CNC(=O)c2ccc(C(C)(C)C)cc2)CCCCC1`, the activity change, negative = inhibition was inactive: -9.24%. With `CN(C)C1(CNC(=O)c2cc3c(s2)CCC3)CCCCC1` the activity change, negative = inhibition was inactive: 69.3%.
% is set by controls: 0 for no effect and ±100 for the full control effect.
